A mixed list of measured activities; the numbers were collected in NIAID ChemDB.

Shared fields: tests in culture; organism: HIV-1; endpoint: EC50

Rows are shuffled and stem from different studies. ECn is the concentration giving n% inhibition of infection, replication or growth.

{"smiles": "O=C(CCNc1n[nH]c(=O)[nH]c1=O)N/N=C/c1ccccn1", "cells": "HeLa", "read by": "cell fusion / luminescence", "result": ">112 µM"}
{"smiles": "CCOC(=O)c1cc(C(=O)c2ccc(Cl)cc2)n2ccc(C(=O)NCc3ccccn3)cc12", "cells": "H9", "read by": "p24 / antigen", "result": "98.1 µM"}
{"smiles": "CC(C)C1=C2[C@H]3CC[C@@H]4[C@@]5(C)CC[C@H](OC(=O)[C@H]6C[C@@H](C(=O)O)C6(C)C)C(C)(C)[C@@H]5CC[C@@]4(C)[C@]3(C)CC[C@@]2([C@@H](O)CNC(=O)Cc2ccc(Cl)cc2)CC1=O", "cells": "MT-2", "strain": "92HT599", "read by": "p24 / ELISA", "result": "<1 µM"}
{"smiles": "CC(C)OC(=O)C[C@H](N[P@](=O)(CO[C@H](C)Cn1cnc2c(N)ncnc21)NC(C)(C)C(=O)OC(C)C)C(C)C", "cells": "MT4-GFP", "read by": "fluorescence", "conditions": "50% human serum", "result": ">2000 µM"}
{"smiles": "COc1cccc2[nH]cc(C(=O)C(=O)N3CCN(C(=O)c4ccccc4)C[C@H]3C)c12", "cells": "HeLa-CD4/CCR5", "strain": "JR-FL", "read by": "single cycle", "result": "0.0006 µM"}
{"smiles": "CCCCCCCCCCCCCCCCOCCCOP(=O)(O)COCCn1cnc2c(=O)[nH]c(N)nc21", "read by": "plaque count", "result": "0.001 µM"}
{"smiles": "CC1=C(C(=O)Nc2ccc(Cl)c(C(=O)OC(C)C)c2)SCCO1", "cells": "MT-2", "strain": "IIIB", "read by": "p24 / RT activity", "result": "0.24 µM"}
{"smiles": "CC(C)COC(=O)[C@@H](C)NP(=O)(CO[C@H](C)Cn1cnc2c(N)ncnc21)NC[C@H](C)C(=O)OC(C)C", "cells": "MT4-GFP", "read by": "fluorescence", "conditions": "50% human serum", "result": "51.6 µM"}
{"smiles": "CCCC[C@H](NC(=O)c1ccccc1SSc1ccccc1C(=O)N[C@@H](CCCC)C(=O)OC(C)(C)C)C(=O)OC(C)(C)C", "cells": "CEM", "strain": "IIIB", "read by": "cytopathic effect / XTT", "result": ">16 µM"}
{"smiles": "CCOc1ccc(-c2c(C(OC(C)C)C(=O)O)c(C)nc3ccc(Cl)cc23)cc1", "cells": "C8166", "read by": "luciferase / reporter gene", "result": "<20 µM"}
{"smiles": "CCOC(=O)c1cc(C(=O)c2ccccc2)n2ccc(C(=O)NCc3ccco3)cc12", "cells": "H9", "read by": "p24 / antigen", "result": "19.3 µM"}
{"smiles": "CCN(CC)C(=S)N=Nc1c(O)n(C)c2ccccc12", "cells": "H9/HIV-1 + H9", "read by": "plaque count", "conditions": "chronic infection", "result": "0.4 µg/mL"}
{"smiles": "Cc1ccc(-c2c(C(OC(C)C)C(=O)O)c(C)nc3ccc(Cl)cc23)c(C)c1", "cells": "C8166", "read by": "luciferase / reporter gene", "result": "<20 µM"}
{"smiles": "O=C(N[C@H](CO)c1ccccc1)c1ccccc1SSc1ccccc1C(=O)N[C@H](CO)c1ccccc1", "cells": "CEM", "strain": "IIIB", "read by": "cytopathic effect / XTT", "result": ">21 µM"}
{"smiles": "Cc1cn([C@H]2C[C@H](N=[N+]=[N-])[C@@H](COP(=O)(Nc3cc(C(=O)Nc4cc(C(=O)Nc5cc(C(=O)Nc6cc(C(=O)NCCC(=N)N)n(C)c6)n(C)c5)n(C)c4)n(C)c3)OC3CCCCC3)O2)c(=O)[nH]c1=O", "cells": "MT-4", "read by": "p24 / antigen", "result": "0.07 µM"}
{"smiles": "C=C(C)[C@@H]1CC[C@]2(C(=O)NCCCCCCCC(=O)N[C@@H](CC(C)C)[C@@H](O)CC(=O)O)CC[C@]3(C)[C@H](CC[C@@H]4[C@@]5(C)CC[C@H](O)C(C)(C)[C@@H]5CC[C@]43C)[C@@H]12", "cells": "PBMC", "strain": "IIIB", "read by": "p24 / RT activity", "result": "<0.1 µM"}
{"smiles": "CCOC(=O)c1cc(C(=O)c2ccc3ccccc3c2)n2ccc(C(=O)c3ccccc3)cc12", "cells": "H9", "read by": "p24 / antigen", "result": "36.1 µM"}
{"smiles": "O=C(N/C(C(=O)N1CCCCC1)=C(/Cl)c1ccccc1)c1ccccc1", "cells": "MT-2", "strain": "RF", "read by": "plaque count / virus yield", "result": ">81 µM"}
{"smiles": "Cc1nc2ccccc2c(-c2cccc(O)c2)c1C(OC(C)C)C(=O)O", "cells": "C8166", "read by": "luciferase / reporter gene", "result": "<20 µM"}
{"smiles": "CC(C)C1=C2[C@H]3CC[C@@H]4[C@@]5(C)CC[C@H](OC(=O)[C@H]6C[C@@H](C(=O)O)C6(C)C)C(C)(C)[C@@H]5CC[C@@]4(C)[C@]3(C)CC[C@@]2(CC(=O)NCc2ccc(N3CCN(C)CC3)cc2)CC1=O", "cells": "MT-2", "strain": "92HT599", "read by": "p24 / ELISA", "result": "<1 µM"}
{"smiles": "CCOC(=O)c1cc(C(=O)c2ccccc2)n2ccc(C(=O)N[C@@H](Cc3c[nH]c4ccccc34)C(=O)OC)cc12", "cells": "H9", "read by": "p24 / antigen", "result": "103.2 µM"}
{"smiles": "Cc1[nH]c2ccccc2c1CC(=O)N[C@@H](Cc1ccccc1)C(=O)N(C)c1ccccc1", "cells": "SupT1", "strain": "R9", "read by": "GFP / reporter gene", "result": "0.3 µM"}
{"smiles": "O=C(N/N=C/c1ccc(O)cc1)Nc1cccc2nsnc12", "cells": "Cf2Th-CD4/CCR5", "strain": "YU2", "read by": "cell fusion / luminescence", "conditions": "pseudotyped", "mutations": "HXBc2-YU2 V3 chimeras", "result": "20.2 µM"}
{"smiles": "CCCCCCOC(=O)C(C)(C)NP(=O)(CO[C@H](C)Cn1cnc2c(N)ncnc21)N[C@@H](CC(=O)OC(C)C)C(C)C", "cells": "MT4-GFP", "read by": "fluorescence", "conditions": "10% human serum", "result": "19.1 µM"}
{"smiles": "O=C(N/N=C/c1ccsc1)c1c[nH]c2ccccc12", "cells": "HeLa", "read by": "cell fusion / luminescence", "result": ">112 µM"}
{"smiles": "Cc1cn([C@H]2C=C[C@@H](COP(=O)(Nc3cc(C(=O)Nc4cc(C(=O)Nc5cc(C(=O)NCCC(=N)N)n(C)c5)n(C)c4)n(C)c3)OC(C)C)O2)c(=O)[nH]c1=O", "cells": "MT-4", "read by": "p24 / antigen", "result": "0.08 µM"}
{"smiles": "O=C(NN=C1CCCC1)c1ccccc1O", "cells": "HeLa", "read by": "cell fusion / luminescence", "result": ">112 µM"}
{"smiles": "CCCC(C(=O)O)c1c(CC)nc2ccc(Cl)cc2c1-c1ccc(Cl)cc1", "cells": "C8166", "read by": "luciferase / reporter gene", "result": "<20 µM"}
{"smiles": "CC(C)COC(=O)[C@H](C)NP(=O)(CO[C@H](C)Cn1cnc2c(N)ncnc21)NC[C@H](C)C(=O)OC(C)C", "cells": "MT4-GFP", "read by": "fluorescence", "conditions": "50% human serum", "result": "70.2 µM"}
{"smiles": "Cc1cn(C2C[C@H](N=[N+]=[N-])[C@@H](COP(=O)(Nc3cc(C(=O)Nc4cc(C(=O)Nc5cc(C(=O)NCCC#N)n(C)c5)n(C)c4)n(C)c3)OC(C)C)O2)c(=O)[nH]c1=O", "cells": "MT-4", "read by": "p24 / antigen", "result": "0.013 µM"}
{"smiles": "CC(C)C1=C2[C@H]3CC[C@@H]4[C@@]5(C)CC[C@H](OC(=O)[C@H]6C[C@@H](C(=O)O)C6(C)C)C(C)(C)[C@@H]5CC[C@@]4(C)[C@]3(C)CC[C@@]2(CC(=O)NCC(F)(CN)NC(=O)c2ccc(Cl)cc2)CC1=O", "cells": "MT-2", "strain": "92HT599", "read by": "p24 / ELISA", "result": "<1 µM"}
{"smiles": "CC(C)[C@@H](/C=C/C(=O)O)NC(=O)c1ccccc1SSc1ccccc1C(=O)N[C@H](/C=C/C(=O)O)C(C)C", "cells": "CEM", "strain": "IIIB", "read by": "cytopathic effect / XTT", "result": "4.8 µM"}
{"smiles": "CCc1ccc(-c2c(C(OC(CC)CC)C(=O)O)c(C)nc3ccc(Cl)cc23)cc1", "cells": "C8166", "read by": "luciferase / reporter gene", "result": "<20 µM"}
{"smiles": "CCOC(=O)c1cc(C(=O)c2ccc(C(F)(F)F)cc2)n2ccc(C(=O)NCc3ccccn3)cc12", "cells": "H9", "read by": "p24 / antigen", "result": "20.5 µM"}
{"smiles": "CC(C)OC(=O)[C@H](C)CNP(=O)(CO[C@H](C)Cn1cnc2c(N)ncnc21)N[C@@H](C)C(=O)OC(C)C", "cells": "MT4-GFP", "read by": "fluorescence", "conditions": "10% human serum", "result": "10.6 µM"}
{"smiles": "O=C(N/N=C/c1ccccc1)NC1CCCCC1", "cells": "HeLa", "read by": "cell fusion / luminescence", "result": ">112 µM"}
{"smiles": "CC(C)C1=C2[C@H]3CC[C@@H]4[C@@]5(C)CC[C@H](OC(=O)[C@H]6C[C@@H](C(=O)O)C6(C)C)C(C)(C)[C@@H]5CC[C@@]4(C)[C@]3(C)CC[C@@]2(CC(=O)NCC(CCN)NC(=O)c2ccc(Cl)cc2)CC1=O", "cells": "MT-2", "strain": "92HT599", "read by": "p24 / ELISA", "result": "<1 µM"}
{"smiles": "CCCC(C(=O)O)c1c(C)nc2ccc(Cl)cc2c1-c1ccc(F)c(Cl)c1", "cells": "C8166", "read by": "luciferase / reporter gene", "result": "<20 µM"}
{"smiles": "C=C(C)C1CC=C(C)/C(=N\\NC(=O)Nc2ccccc2)C1", "cells": "HeLa", "read by": "cell fusion / luminescence", "result": ">112 µM"}
{"smiles": "CCCCCCCOC(=O)[C@@H](C)NP(=O)(CO[C@H](C)Cn1cnc2c(N)ncnc21)NC[C@H](C)C(=O)OC(C)C", "cells": "MT4-GFP", "read by": "fluorescence", "conditions": "50% human serum", "result": "12 µM"}
{"smiles": "O=C(N/N=C/c1ccccc1)Nc1ccccc1", "cells": "HeLa", "read by": "cell fusion / luminescence", "result": ">112 µM"}
{"smiles": "O=C(O)CC[C@H](CC1CCCCC1)NC(=O)c1ccccc1SSc1ccccc1C(=O)N[C@H](CCC(=O)O)CC1CCCCC1", "cells": "CEM", "strain": "IIIB", "read by": "cytopathic effect / XTT", "result": ">8.5 µM"}
{"smiles": "CC(C)C1=C2[C@H]3CC[C@@H]4[C@@]5(C)CC[C@H](OC(=O)[C@H]6C[C@@H](C(=O)O)C6(C)C)C(C)(C)[C@@H]5CC[C@@]4(C)[C@]3(C)CC[C@@]2(CCNCC(C)(CCN)NC(=O)c2ccc(Cl)cc2)CC1=O", "cells": "MT-2", "strain": "92HT599", "read by": "p24 / ELISA", "result": "<1 µM"}
{"smiles": "O=C(O)CCNC(=O)c1ccccc1SSc1ccccc1C(=O)NCCC(=O)O", "cells": "CEM", "strain": "IIIB", "read by": "cytopathic effect / XTT", "result": "7.8 µM"}
{"smiles": "CC(C)C1=C2[C@H]3CC[C@@H]4[C@@]5(C)CC[C@H](OC(=O)[C@H]6C[C@@H](C(=O)O)C6(C)C)C(C)(C)[C@@H]5CC[C@@]4(C)[C@]3(C)CC[C@@]2([C@@H](O)CNC[C@H](CO)NC(=O)c2ccc(Cl)cc2)CC1=O", "cells": "MT-2", "strain": "92HT599", "read by": "p24 / ELISA", "result": "<1 µM"}
{"smiles": "CC(C)OC(=O)C[C@H](N[P@@](=O)(CO[C@H](C)Cn1cnc2c(N)ncnc21)NC(C)(C)C(=O)OC(C)C)C(C)C", "cells": "MT4-GFP", "read by": "fluorescence", "conditions": "50% human serum", "result": "12 µM"}